This note sets out measurements from publication PMC8828381.

In this experiment the target is biotinylated SARS-CoV-2-S1 (SINO BIOLOGICAL #40591-V08H-B) (SARS-CoV-2). The experiment is described as follows: SPR.

The term Kd denotes the equilibrium constant for the complex coming apart. Read a low Kd as tighter binding. Substance “hACE2-his tag (#10108-H08B) (from UniProt Q9BYF1 18-740) (domain or fragment)” gave a dissociation constant Kd of 26 nM.
